Target: T1, soluble murine Fc-dectin-1a receptor (murine, UniProt Q6QLQ4 69-244)
T1 sequence: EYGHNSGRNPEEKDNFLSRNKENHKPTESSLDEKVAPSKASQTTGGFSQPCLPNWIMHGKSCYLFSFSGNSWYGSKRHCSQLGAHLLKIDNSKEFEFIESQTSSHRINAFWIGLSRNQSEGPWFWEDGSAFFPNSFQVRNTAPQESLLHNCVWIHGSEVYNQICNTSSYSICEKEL
Assay: competitive ELISA

B1: SeqID6+CRM197 conjugate without β-glucan modification (other)
peptide: CDMPVDPD
chain: not shown
binding result: no binding
